The term Ki denotes the equilibrium dissociation constant of an inhibitor or competing ligand from its target.

Results on one compound are retold here after ChEMBL document CHEMBL1137295, “Discovery of HIV-1 protease inhibitors with picomolar affinities incorporating N-aryl-oxazolidinone-5-carboxamides as novel P2 ligands” (J Med Chem, 2006).

Assay [1] concerns the target Human immunodeficiency virus type 1 protease (Human immunodeficiency virus 1, UniProt Q72874, D30N/L63P/N88D). The experiment in a line: Inhibition of HIV1 protease D30N/L63P/N88D mutant. In outline:
(§1)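 FRET cleavage of Arg-Glu(EDANS)-[…]DABCYL)-Arg, 1 µM. Protease desalted into 20 mM sodium acetate pH 5, about 50 nM apparent by A280. Preincubated with inhibitor in DMSO 20-30 min at room temperature. Buffer 0.1 M NaOAc, 1 M NaCl, 1 mM EDTA, 1 mM DTT, 2% DMSO, 1 mg/mL BSA, pH 4.7. Read 340/490 nm, 30 °C, ~10 min. Ki by nonlinear fit of initial velocity versus inhibitor concentration.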

In assay [2] the target is Human immunodeficiency virus type 1 protease (Human immunodeficiency virus 1, UniProt Q72874, A71V/G73S/I84V/L10I/L63P/L90M). The assay is described as follows: Inhibition of HIV1 protease L10I/L63P/A71V/G73S/I84V/L90M mutant. The essentials: as §1
The target in assay [3] is Human immunodeficiency virus type 1 protease (Human immunodeficiency virus 1, UniProt Q72874, Q7K). The experiment in a line: Inhibition of wild type HIV1 protease Q7K mutant. The essentials: as §1
In assay [4] the target is Human immunodeficiency virus type 1 protease (Human immunodeficiency virus 1, UniProt Q72874, G48V/I54V/L10I/L63P/V82A). The assay is described as follows: Inhibition of HIV1 protease L10I/G48V/I54V/L63P/V82A mutant. In outline: as §1

For `Cc1cccc(C)c1OCC(=O)N[C@@H](Cc1ccccc1)[C@@H](O)C[C@H](Cc1ccccc1)NC(=O)[C@H](C(C)C)N1CCCNC1=O` [LOPINAVIR], the Ki turned out to be 0.04 nM in assay [1], 0.9 nM in assay [2], 0.005 nM in assay [3] and 6.1 nM in assay [4].
